PubChem BioAssay AID504761 | Drosophila RNAi Screening Center | 2011
The deposit covers about 22,000 reagents; shown is a random part of those that have a named target and a result. In the full data, 116 (0.52%) got an active call. 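Calls depend on retest data that are not deposited; infection was ranked per plate without normalising between plates; the unit of the infection score is not given.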 Raw values vary from plate to plate and are shown uncorrected. A plus sign joins genes that one reagent is predicted to hit. Not given: the amount of reagent, the time to read-out.

Purpose: 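Insect host genes that dengue virus relies on to spread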 (primary screen)
System: D.Mel-2 cells from Drosophila
Knock-down reagent: long dsRNA against Drosophila genes
Conditions: infection with dengue virus type 2; dose and infection time not stated
Detection: 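Per well on two replicate plates, imaging gave the percent of cells positive for viral envelope protein, ranked by infection, and a nuclear count of cells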
Scale: infection score: higher = more virus-infected cells; cell count: higher = more cells in the well
Active means: 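Low infection ranks in the two replicates (chance level up to 0.065) followed by a retest with a 1.5-fold or larger significant decrease, p below 0.05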
Meaning of the calls: active = confirmed: knock-down lowers infection; inactive = not picked or not confirmed

The opening 4 entries as a preview:
no.	target	dsRNA	infection score, replicate 1	infection score, replicate 2	cell count, replicate 1	cell count, replicate 2	Outcome
1	Nup50 (Nucleoporin 50kD)	DRSC06827	3.86	12.6	5952	5802	inactive
2	Nup50 (Nucleoporin 50kD)	DRSC26470	2.51	7.17	5746	5553	inactive
3	mRpL47 (mitochondrial ribosomal protein L47)	DRSC16827	2.89	12.9	5735	5412	inactive
4	CG31735	DRSC01518	2.27	0.75	5725	5698	inactive

The list itself, from the start:
no.	target	dsRNA	infection score, replicate 1	infection score, replicate 2	cell count, replicate 1	cell count, replicate 2	Outcome
1	Nup50 (Nucleoporin 50kD)	DRSC06827	3.86	12.6	5952	5802	inactive
2	Nup50 (Nucleoporin 50kD)	DRSC26470	2.51	7.17	5746	5553	inactive
3	mRpL47 (mitochondrial ribosomal protein L47)	DRSC16827	2.89	12.9	5735	5412	inactive
4	CG31735	DRSC01518	2.27	0.75	5725	5698	inactive
5	CG31735	DRSC30072	2.56	8.16	6412	5830	inactive
6	glec (gliolectin)	DRSC16958	0.42	3.69	6855	6856	inactive
7	glec (gliolectin)	DRSC25314	1.71	1.2	6538	6415	inactive
8	CG3823	DRSC18325	2.24	1.74	6248	6281	inactive
9	CG3823	DRSC26025	10.7	9.49	4931	6093	inactive
10	Set2 (SET domain containing 2)	DRSC19765	1.41	2.22	6439	6316	inactive
11	CG13898	DRSC08368	2.99	1.39	6114	6276	inactive
12	Tmlh (Trimethyllysine hydroxylase)	DRSC15563	1.54	4.61	6346	6447	inactive
13	CG3984	DRSC15530	3.43	14	5706	5961	inactive
14	Irc (Immune-regulated catalase)	DRSC16454	9.18	7.43	6048	6583	inactive
15	Irc (Immune-regulated catalase)	DRSC28100	14.7	4.47	6006	6598	inactive
16	CG10343	DRSC02041	7.8	4.98	1795	6228	inactive
17	CG10343	DRSC27740	9.9	17.9	6740	6713	inactive
18	Mad1 (Mitotic arrest-deficient 1)	DRSC07561	6.07	5.08	5811	6120	inactive
19	Vps60 (Vacuolar protein sorting 60)	DRSC10610	4.21	10.6	6060	6366	inactive
20	Vrp1 (Verprolin 1)	DRSC04148	18.2	44.6	5621	4452	inactive
21	Vrp1 (Verprolin 1)	DRSC26671	8.51	7.94	5923	6208	inactive
22	CG5641	DRSC15852	4.55	3.98	6794	6252	inactive
23	CG18823	DRSC18168	1.55	3.83	6395	6244	inactive
24	cora (coracle)	DRSC07597	2.7	1.27	6142	6476	inactive
25	cora (coracle)	DRSC28125	18.2	9.79	5963	5943	inactive
26	pho (pleiohomeotic)	DRSC17219	1.14	2.14	6643	6545	inactive
27	Blos2	DRSC10147	2.33	2.36	6148	6133	inactive
28	Blos2	DRSC25642	1.04	4.87	6165	6074	inactive
29	CG42809 + CG42810	DRSC02532	3.7	3.98	6763	6301	inactive
30	CG42809 + CG42810	DRSC02533	4.62	7.22	6847	6755	inactive
31	Lrr47 (Leucine-rich repeat 47)	DRSC03365	1.87	2.38	6514	6397	inactive
32	Gnpnat (Glucosamine-phosphate N-acetyltransferase)	DRSC15405	1.61	1.46	5906	6161	inactive
33	osk (oskar)	DRSC17023	19.9	19.4	5117	5704	inactive
34	capu (cappuccino)	DRSC00434	5.98	2.77	6374	7222	inactive
35	capu (cappuccino)	DRSC27884	2.99	30.7	6530	5430	inactive
36	CG16986	DRSC08502	2.38	3.9	6103	5636	inactive
37	CG17612	DRSC00505	5.69	18.8	6080	4458	inactive
38	CG17612	DRSC28366	15.2	19.7	5171	3406	inactive
39	CG14695	DRSC14918	2.57	32.2	6530	5576	inactive
